This passage reports Kd results from US20240181044A1.

In the assay the target is RBD (SARS-COV-2) (UniProt P0DTC2). Put plainly: SPR. Background: SPR reads the build-up and loss of mass on a sensor chip optically.

pKd: −log10 of the molar value.

In general, pKd refers to the Kd on a negative log10 scale, so that one unit is a factor of ten. Lower therefore signals a large Kd. As to CB6, the pKd was 7.41.
CC12.1 showed a pKd of 7.70.
The result for CC12.3 reads 8.02; that for CV30, 8.00.
Substance EY6A gave a negative logarithm of the Kd (pKd) of 8.15.
